Measurements as given in PMC12060211, “Development of Efficient Covalent Inactivators of a Fungal Aspartate Semialdehyde Dehydrogenase” (Drug Development Research, 2025).
Structures were worked out from names or drawings and are uncertain.

Amino acid sequences for entries named in this document (tags omitted).
UniProt Q5ALM0, whole entry: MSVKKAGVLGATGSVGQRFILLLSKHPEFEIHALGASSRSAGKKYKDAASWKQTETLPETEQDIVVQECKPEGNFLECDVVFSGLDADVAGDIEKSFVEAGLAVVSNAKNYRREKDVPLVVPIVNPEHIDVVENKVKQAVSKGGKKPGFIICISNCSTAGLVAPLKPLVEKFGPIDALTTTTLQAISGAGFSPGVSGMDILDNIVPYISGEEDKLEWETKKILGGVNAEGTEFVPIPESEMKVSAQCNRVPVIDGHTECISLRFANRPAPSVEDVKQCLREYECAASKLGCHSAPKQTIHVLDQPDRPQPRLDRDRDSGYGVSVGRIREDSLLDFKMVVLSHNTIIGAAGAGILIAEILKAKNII

Molecular target: CalASADH (C. albicans ASADH, aspartate semialdehyde dehydrogenase) (Candida albicans, UniProt Q5ALM0)
Assay: time-dependent inactivation, NADPH formation at […] nm, kobs = kinact[I]/(Ki+[I])
Details: read-out: Ki; covalent; irreversible inactivation; residual activity read at pH 8.6 with 0.3 mM L-aspartate-beta-semialdehyde, 20 mM phosphate, 1.5 mM NADP; tested form: HCl

SMILES | KI (inactivation)
CN(C)C(=O)/C=C/C[C@H](N)C(=O)O | 1430 nM
NC(=O)/C=C/C[C@H](N)C(=O)O | 1460 nM
